# Measurements reported in PubChem BioAssay AID1259414 (Drosophila RNAi Screening Center, 2018).
# Test: 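Host factors increasing or decreasing Wolbachia levels in cultured fly cells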 (primary screen)
# Cell system: Drosophila JW18 cells infected with Wolbachia
# Knock-down reagent: long dsRNA against Drosophila genes, 0.25 µg dsRNA per well of a 384-well plate
# Time to read-out: 5 days
# Conditions: cells persistently infected with Wolbachia before knock-down; no added drug
# Read-out: 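Imaged fluorescence in situ signal for Wolbachia 23S rRNA per DAPI-counted host cell, given as a robust z-score within each plate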
# Direction: Wolbachia per cell robust z: higher = more Wolbachia per host cell than the plate typical
# Hit rule: 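Active if absolute robust z reaches 1.5 in two or more of three replicates, leaving out multi- or no-target dsRNAs, genes unexpressed in JW18 and A1 wells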
# The screen tested about 24,000 reagents; below is an unselected part of those with a known target gene and a result. Of all reagents, about 1,210 (5%) are marked active. 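Inactive calls also include excluded dsRNAs with several or no targets, genes unexpressed in JW18, and well A1, regardless of score.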 Unmarked entries are inactive. Names joined by + are all predicted targets of the reagent.
Target gene,dsRNA,"Wolbachia per cell robust z, rep 1","Wolbachia per cell robust z, rep 2","Wolbachia per cell robust z, rep 3"
CG4115,DRSC15545,1.11,0.0326,1.09
NANS,DRSC15743,-1.46,-3.03,-4.81
NANS,DRSC27626,-1.33,-0.422,0.696
RpS17,DRSC11271,1.61,0.84,0.559
RpS17,DRSC29519,2.06 (active),1.98,-6.09
Trs33,DRSC15990,-0.967,-1.97,1.06
CG42808,DRSC06370,-0.0936,-0.214,-0.00496
Cpr30F,DRSC02908,-0.475,-0.643,0.314
Cpr30F,DRSC25531,0.755,-0.612,0.567
crq,DRSC00810,-0.177,0.45,2.39
CG18081,DRSC10294,0.832,0.0889,-0.0252
CG18081,DRSC25758,-0.392,0.167,-0.931
CG42816,DRSC11230,0.52,0.222,0.476
tll,DRSC17085,0.505,0.642,-0.977
tll,DRSC28584,-0.69,0.239,-1.07
tll,DRSC38950,2.33,0.0652,0.294
CG34398,DRSC01052,0.853,0.608,1.92
CG34398,DRSC02511,-0.0037,0.211,-9.46
CG34398,DRSC03228,0.0806,-0.267,-1.9
CG34398,DRSC23293,0.0635,1.09,0.0143
CG34242,DRSC38727,0.213,0.0642,0.769
CG16710,DRSC15136,0.135,-0.441,-0.766
CG8360,DRSC03085,0.691,-0.0126,0.12
CG8360,DRSC26870,-0.735,-1.86,-1.07
mino,DRSC14132,-0.338,-0.31,-4.9
Nin,DRSC02007,-0.612,-1.6,-0.0449
ben,DRSC20310,-0.896,-1.51,-1.3
ben,DRSC21261,0.554,0.533,0.743
ben,DRSC29133,-0.0394,0.313,-0.864

Single entries from above:
Under “Wolbachia per cell robust z, rep 1”, CG34398 [DRSC02511] has -0.0037
Under “Wolbachia per cell robust z, rep 1”, CG34398 [DRSC03228] has 0.0806
For “Wolbachia per cell robust z, rep 2”, CG18081 [DRSC25758] shows 0.167
NANS [DRSC27626], Wolbachia per cell robust z, rep 3 → 0.696
CG4115 [DRSC15545], Wolbachia per cell robust z, rep 2 = 0.0326
Result for CG34398 [DRSC01052] in “Wolbachia per cell robust z, rep 3”: 1.92

The listing continues.
Target gene,dsRNA,"Wolbachia per cell robust z, rep 1","Wolbachia per cell robust z, rep 2","Wolbachia per cell robust z, rep 3"
Ptpmeg,DRSC08684,1.11,-4.67,0.896
Ptpmeg,DRSC26348,-0.0281,-1.22,0.656
Lapsyn,DRSC04249,0.35,-3.59,-0.0598
Tsen34 + Trl,DRSC10014,-1.37,-2.27,-1.05
Ndg,DRSC06223,-0.579,0.337,-0.595
Ndg,DRSC28402,-6.61,-0.374,-0.694
CG1307,DRSC12492,1.33,-2.38,0.189
Synj,DRSC04526,-0.173,-7.83,0.133
temp,DRSC18271,-0.987,0.199,-0.0573
Dyrk2,DRSC03610,0.576 (active),-6.3,-3.82
Dyrk2,DRSC29029,0.264,0.37,1.42
CG43658,DRSC19455,0.165,0.0784,-1.62
CG43658,DRSC20111,-0.218,0.0683,-0.757
CG43658,DRSC25232,-7.09 (active),-1.52,-0.303
CG43658,DRSC25445,-0.352,-0.997,-0.193
CG8414,DRSC07168,0.647,-2.48,-0.634
Tsp42Eo,DRSC06184,1.2,0.081,-0.357
Fign,DRSC00592,-0.923,0.0971,-0.541
nmo,DRSC08902,1.02,2.23,0.489
nmo,DRSC11377,-8.68 (active),-0.512,-2.19
nmo,DRSC27949,0.211,-2.12,-1.48
CheB98a,DRSC14882,-0.482,0.172,-0.785
CheB98a,DRSC41464,-2.28,0.31,0.544
CG34039,DRSC37914,1.23,1.02,1.24
thr,DRSC07706,1.47 (active),2.23,3.91
sand,DRSC07245,-1.69,-0.0153,0.236
CG5167,DRSC15728,-0.508,-0.927,-0.676
CG8219,DRSC10971,-0.51,-0.441,-3.53
CG8219,DRSC24577,-0.952,2.02,-2.77
CG13733,DRSC10061,1.05,0.413,-0.136
CG12115,DRSC17811,-0.58,0.458,-0.574
CG1544,DRSC15036,0.255,0.532,0.419
RhoBTB,DRSC11877,0.435,0.425,0.252
Mlc1,DRSC16740,0.81,-0.0106,1.03
Mlc1,DRSC27232,-0.24,-0.156,0.00262
mRpL34,DRSC38732,-0.493,0.212,-0.00763
LUBEL,DRSC02141,-8.05,0.0588,0.17
LUBEL,DRSC28105,0.633,0.382,0.762
CG5921,DRSC17431,0.243,0.817,-0.474
CG5921,DRSC18390,-1.59,-0.409,0.108
CG5921,DRSC27493,1.18,0.681,0.482
